How the values were obtained:
[1] = biological target: T1, M. tuberculosis MshB (Rv1170) (Mycobacterium tuberculosis, UniProt P9WJN3); test: Metal ion dependence of MshB amidase activity; conditions: for Amidase Specific Activity: 0.1 mM MSmB as substrate with 0.1 mM metal ion; for Amidase Activity relative rate: relative to apoenzyme, 0.1 mM MSmB; for Amidase Activity relative rate / Activation of MshB apoenzyme, amidase reaction: 0.1 mM metal ion
[2] = biological target: T1, M. tuberculosis MshB (Rv1170); test: Metal ion dependence of MshB deacetylase activity; conditions: for Deacetylase Specific Activity: 0.1 mM GlcNAc-Ins as substrate with 0.1 mM metal ion; for Deacetylase Activity Relative rate: relative to apoenzyme, 0.1 mM GlcNAc-Ins; for Deacetylase Activity Relative rate / Activation of MshB apoenzyme, deacetylase reaction: 0.1 mM metal ion
His-tagged MshB = His-tagged MshB (Mycobacterium tuberculosis, UniProt P9WJN3); test: Inhibition of His-tagged MshB amidase reaction; type: biochemical, M. tuberculosis; conditions: 0.1 to 1 mM inhibitor, 0.55 mM MSmB
Rv1170 = Rv1170 (Mycobacterium tuberculosis, UniProt P9WJN3); test: Deacetylase activity of crude extract from E. coli transformed with pYA1170b; type: biochemical, M. tuberculosis
[3] = biological target: T1, M. tuberculosis MshB (Rv1170); test: Kinetics and substrate specificity of His-tagged MshB, deacetylase reaction; type: biochemical
[4] = test system: deacetylase activity of M. smegmatis mc^2155 extract; test: Deacetylase activity (GlcN-Ins production) in centrifuged cell extracts, strain mc^2155; conditions: 100 μM GlcNAc-Ins added, undialyzed extract
[5] = deacetylase, Eadie-Hofstee plot

By UniProt entry, the sequences of proteins in these tests, tags left out. Where a name states a change or a piece, a line headed by the entry shows the natural chain unless it says otherwise.
UniProt P9WJN3: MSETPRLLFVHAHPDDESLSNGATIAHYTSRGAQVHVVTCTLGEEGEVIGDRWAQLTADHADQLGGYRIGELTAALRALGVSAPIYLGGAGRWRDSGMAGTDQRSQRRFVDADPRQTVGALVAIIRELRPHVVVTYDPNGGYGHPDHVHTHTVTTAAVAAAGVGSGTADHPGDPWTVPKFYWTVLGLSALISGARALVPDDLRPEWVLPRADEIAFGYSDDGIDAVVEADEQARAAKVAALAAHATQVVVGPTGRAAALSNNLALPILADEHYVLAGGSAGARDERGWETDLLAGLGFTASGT

Substance: ZnCl2
- Amidase Specific Activity [1]: 17 ± 0.7 nmol/min/mg
- Amidase Activity relative rate [1]: 5.0
- Inhibition by excess Zn^2+ ([2]; 0.1 mM): not inhibitory
- Deacetylase Specific Activity [2]: 81 ± 16 nmol/min/mg
- Inhibition by excess Zn^2+ ([2]; 1 mM): only slightly inhibitory
- Deacetylase Activity Relative rate [2]: 2.3

Substance: CuSO4
- Amidase Specific Activity [1]: 3.2 ± 0.1 nmol/min/mg
- Activation of MshB apoenzyme, amidase reaction [1]: not activated
- Amidase Activity relative rate [1]: 0.94
- Deacetylase Specific Activity [2]: 32 ± 10 nmol/min/mg
- Activation of MshB apoenzyme, deacetylase reaction [2]: not activated
- Deacetylase Activity Relative rate [2]: 0.9

Substance: 1-D-myo-inosityl-2-amino-2-deoxy-α-D-glucopyranoside
- Inhibition of the amidase activity (His-tagged MshB): lack of inhibition

Substance: CaCl2
- Amidase Specific Activity [1]: 3.3 ± 0.1 nmol/min/mg
- Activation of MshB apoenzyme, amidase reaction [1]: not activated
- Amidase Activity relative rate [1]: 0.97
- Deacetylase Specific Activity [2]: 34 ± 5 nmol/min/mg
- Activation of MshB apoenzyme, deacetylase reaction [2]: not activated
- Deacetylase Activity Relative rate [2]: 0.97

Substance: MnCl2
- Amidase Specific Activity [1]: 22 ± 0.7 nmol/min/mg
- Amidase Activity relative rate [1]: 6.5
- Deacetylase Specific Activity [2]: 69 ± 5 nmol/min/mg
- Deacetylase Activity Relative rate [2]: 2.0

Substance: N-acetyl-1-D-myo-inosityl-2-amino-2-deoxy-α-D-glucopyranoside
- Deacetylase activity with GlcNAc-Ins, fold greater than amidase activity with MSMB (Rv1170): 23 fold
- Deacetylase activity with GlcNAc-Ins, fold greater than deacetylase activity with GlcNAc (Rv1170): over 300 fold
- Activity, deacetylase reaction (analysis for amine / deacetylase product) (Rv1170; compound as substrate, n = 3): 27 ± 2 nmol min^−1 mg of protein^−1
- Deacetylase Specific Activity ([3]; 0.1 mM substrate, 50 mM NaCl + 50 mM HEPES pH 7.4, 37° C., Zn^2+ form): 70 ± 3 nmol/min/mg
- Km ([3]; deacetylase, 50 mM NaCl, 50 mM HEPES pH 7.5, 37° C., Eadie-Hofstee plot): 400 µM
- Vmax [3, 5]: 470 nmol/min/mg
- kcat [3, 5]: 0.25 s⁻¹
- Relative Rate (deacetylase reaction) ([3]; relative to GlcNAc-Ins deacetylation, 0.1 mM substrate): 1.0
- Rate of GlcN-Ins production [4]: 19.7±0.4 pmol min^−1 mg of protein^−1

Substance: CdCl2
- Amidase Specific Activity [1]: 21 ± 1.5 nmol/min/mg
- Activation of MshB apoenzyme, amidase reaction [1]: enhanced to the level of Zn^2+
- Amidase Activity relative rate [1]: 6.2
- Deacetylase Specific Activity [2]: 34 ± 2 nmol/min/mg
- Activation of MshB apoenzyme, deacetylase reaction [2]: remained at the apoenzyme activity level
- Deacetylase Activity Relative rate [2]: 0.97

Substance: NiCl2
- Amidase Specific Activity [1]: 13 ± 0.7 nmol/min/mg
- Amidase Activity relative rate [1]: 3.8
- Deacetylase Specific Activity [2]: 62 ± 23 nmol/min/mg
- Deacetylase Activity Relative rate [2]: 1.8

Substance: MgCl2
- Amidase Specific Activity [1]: 3.5 ± 0.2 nmol/min/mg
- Activation of MshB apoenzyme, amidase reaction [1]: not activated
- Amidase Activity relative rate [1]: 1.0
- Deacetylase Specific Activity [2]: 41 ± 4 nmol/min/mg
- Activation of MshB apoenzyme, deacetylase reaction [2]: not activated
- Deacetylase Activity Relative rate [2]: 1.2
